According to US20140235836A1, “Immunologic Constructs and Methods” (published 2014):

Target: A/Aichi/2/1968 virus (hemagglutinin) (influenza virus A/Aichi/2/1968 (H3N2))

“sera of mice given F147 formulation buffer (Aichi series) (polyclonal serum or antibody)” was tested, and the GMT (HAI titers) was 2.5 GMT.
